Article PMC3470408

Key:
[1] = system: CC(C)=CCC/C(C)=C/COP(=O)(O)OP(=O)(O)O; experiment: purified protein; conditions: pH 7.0; 37.0 °C
[2] = system: CC(C)=CCC/C(C)=C/CC/C(C)=C/CO[P@@](=O)(O)OP(=O)(O)O; experiment: purified protein; conditions: pH 7.0; 37.0 °C

Rv0562 (Mycobacterium tuberculosis H37Rv)
Km [1]: 2.3 ± 0.8 µM
Km [2]: 11 ± 3 µM

Rv3383c (Mycobacterium tuberculosis H37Rv)
Km [2]: 19 ± 5 µM
